Laboratory results taken from patent US11077088B2, “Composition and apparatus for treatment of chemotherapy induced alopecia” (Paxman Coolers Ltd, priority 2016, dated 2021).

System: HaCaTa cells
Assay: CellTiter 96 AQueous One cell proliferation assay of chemotherapy drug-treated keratinocytes with or without antioxidant and cooling
Conditions: extremely high doses, 2 h treatment, read 72 h later (FIG. 5 for 4-OH-CP, FIG. 6 for doxorubicin)

4-hydroxycyclophosphamide
cytotoxicity of the drug in keratinocytes: total cytotoxicity (complete death)
